Positions that govern dimerization of the HIV-1 5' RNA

Reference: Ye et al. 2022, doi:10.1038/s41594-022-00746-2.

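Mutant RNA libraries with 1G, 2G or 3G starts, with or without cap, were folded at 37 °C for 30 min. Monomer and dimer bands were cut from native gels after folding in high salt (300 mM KCl, 5 mM MgCl2) or low salt (40 mM KCl, 0.1 mM MgCl2). Kdimer compares mutation frequencies in monomer and dimer, corrected for sequencing errors.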

The 5' region of HIV-1 NL4-3 RNA (positions 1-437):
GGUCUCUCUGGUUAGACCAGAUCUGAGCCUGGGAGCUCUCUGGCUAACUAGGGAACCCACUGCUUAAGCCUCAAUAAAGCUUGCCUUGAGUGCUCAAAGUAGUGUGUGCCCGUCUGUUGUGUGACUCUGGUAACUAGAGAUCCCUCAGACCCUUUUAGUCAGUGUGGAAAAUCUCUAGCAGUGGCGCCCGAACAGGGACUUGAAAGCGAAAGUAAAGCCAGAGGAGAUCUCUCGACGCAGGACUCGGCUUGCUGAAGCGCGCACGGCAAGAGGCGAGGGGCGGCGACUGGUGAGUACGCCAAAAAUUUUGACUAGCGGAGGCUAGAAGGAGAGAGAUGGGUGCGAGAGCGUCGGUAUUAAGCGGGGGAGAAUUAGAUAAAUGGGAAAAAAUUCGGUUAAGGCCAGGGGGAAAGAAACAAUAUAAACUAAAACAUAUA

Scale: median log2 Kdimer over the changes at a position; positive = changes inhibit dimerization, negative = changes enhance it. Sample: 3G capped low-salt. One numbering serves 1G, 2G and 3G. A position is written with its base where known.

| # | position | 3G capped low-salt |
|---|---|---|
| 1 | C28 | -0.08 |
| 2 | C29 | 0.09 |
| 3 | A47 | -0.06 |
| 4 | A66 | -0.49 |
| 5 | G99 | -0.21 |
| 6 | U113 | 0.59 |
| 7 | C114 | 0.53 |
| 8 | U131 | 0.79 |
| 9 | A132 | -0.07 |
| 10 | A147 | -0.17 |
| 11 | C152 | -0.38 |
| 12 | G164 | 0.09 |
| 13 | C173 | -0.38 |
| 14 | G181 | -0.71 |
| 15 | G183 | -0.12 |
| 16 | G186 | -0.45 |
| 17 | C187 | -0.26 |
| 18 | C193 | -0.33 |
| 19 | G195 | 0.83 |
| 20 | G208 | -0.16 |
| 21 | C218 | -0.71 |
| 22 | G223 | 0.75 |
| 23 | G224 | -0.16 |
| 24 | A225 | -0.07 |
| 25 | A235 | -1.59 |
| 26 | G240 | -0.28 |
| 27 | G241 | -0.45 |
| 28 | G246 | 1.92 |
| 29 | A256 | 1.44 |
| 30 | G257 | 4.39 |
| 31 | C264 | 2.92 |
| 32 | G265 | 3.25 |
| 33 | C299 | -0.34 |
| 34 | U306 | -0.01 |
| 35 | U308 | -0.08 |
| 36 | U309 | 0.32 |
| 37 | A314 | -0.31 |
| 38 | G339 | 0.95 |
| 39 | C352 | -0.14 |
| 40 | G363 | 0.28 |
| 41 | A371 | -0.20 |
| 42 | A387 | 0.06 |
| 43 | G394 | 0.14 |
| 44 | G395 | -0.44 |
| 45 | A404 | -0.09 |
| 46 | A415 | 0.02 |
| 47 | C426 | 0.07 |
| 48 | 440 | 0.15 |
| 49 | 447 | -0.15 |
| 50 | 466 | 0.07 |
| 51 | 475 | -0.04 |
| 52 | 476 | 0.01 |
| 53 | 478 | -0.19 |
| 54 | 484 | 0.02 |
| 55 | 489 | 0.09 |

Extract of 5 entries:

position	3G capped low-salt
G246	1.92
484	0.02
G186	-0.45
C299	-0.34
G164	0.09

The source gives no letters past position 437.